A mixed list of measured activities; the numbers were collected in NIAID ChemDB.

All rows: tests on isolated targets; species: HIV-1; protein: Reverse transcriptase

Fold resistance has wild type as its base. a–b is a range or a potency band. ICn: concentration for n% inhibition. Neighbouring rows are from separate reports.

Cc1nnc2c3ccccc3c(N3Cc4ccccc4C(C)(C)C3)nn12 ; strain: 98US_MSC5016 ; read by: RT activity / fluorescence ; read-out: IC90 ; result: 70.3 µM
CC(C)(C#Cc1ccc(NC(=O)CSc2nnnn2-c2ccc(C3CC3)cc2Cl)c(Cl)c1)NCC1CC1 ; mutations: RT-K103 Y181C ; read by: PicoGreen / fluorescence ; read-out: IC50 ; result: <1 µM
CCN1c2ncc(CCOc3ccc(C(=O)O)c4c3CCCC4)cc2C(=O)N(C)c2ccc(C)nc21 ; mutations: RT-Y188L ; read by: nucleotide incorporation / radiometric ; read-out: fold resistance ; result: 1–10
Cc1c(Cc2ccccc2)nc(NCCCCN)[nH]c1=O ; mutations: RT-V106A ; read-out: Ki ; result: >1000 µM
c1coc(-c2nnc3c4ccccc4c(N4CCc5ccccc5C4)nn23)c1 ; strain: IIIB ; read by: RT activity / fluorescence ; read-out: IC90 ; result: 1.17 µM
O=C(CSc1nnnn1-c1ccc(C2CC2)cc1Cl)Nc1ccc(OCC(=O)N2CCC(C(=O)O)CC2)cc1Cl ; strain: WT ; read by: PicoGreen / fluorescence ; read-out: IC50 ; result: <1 µM
COc1cc2c(cc1N)CN(c1nn3c(C4CC4)nnc3c3ccccc13)CC2 ; strain: IIIB ; read by: RT activity / fluorescence ; read-out: IC90 ; result: 9.25 µM
CCc1cc(NCc2nc3c(C)ccc(C)c3o2)c(=O)[nH]c1C ; mutations: RT-Y188H ; read by: nucleotide incorporation ; read-out: fold resistance ; result: 8.4
CN1CCN(C(=O)COC(C)(C)C#Cc2ccc(NC(=O)CSc3nnnn3-c3ccc(C(C)(C)C)cc3Cl)c(Cl)c2)CC1 ; mutations: RT-K103 Y181C ; read by: PicoGreen / fluorescence ; read-out: IC50 ; result: <1 µM
N#Cc1ccc2c(c1)CN(c1nn3c(C4CC4)nnc3c3ccccc13)CC2 ; strain: KER2008 ; read by: RT activity / fluorescence ; read-out: IC90 ; result: 2.99 µM
CCN1c2ncc(CCOc3ccc(N(C)c4ccc(C(=O)O)cc4)cc3C)cc2C(=O)N(C)c2cccnc21 ; strain: IIIB ; mutations: RT-K103N Y181C ; read by: nucleotide incorporation / radiometric ; read-out: fold resistance ; result: >1
O=c1cc(Cc2ccccc2)nc(NCCCCO)[nH]1 ; mutations: RT-V106A ; read-out: Ki ; result: 75 µM
CCN1c2ncc(CCOc3ccc(-c4cccnc4C)cc3C)cc2C(=O)N(C)c2cccnc21 ; strain: IIIB ; mutations: RT-K103N Y181C ; read by: nucleotide incorporation / radiometric ; read-out: IC50 ; result: <0.05 µM
CC(C)(C)c1ccc(-n2nnnc2SCC(=O)Nc2ccc(OCC(=O)NN3CCOCC3)cc2Cl)c(Cl)c1 ; strain: WT ; read by: PicoGreen / fluorescence ; read-out: IC50 ; result: <1 µM
NCCCCNc1nc(Cc2ccccc2)cc(=O)[nH]1 ; mutations: RT-Y188L ; read-out: Ki ; result: >1000 µM
O=C(CSc1nnnn1-c1ccc(C(F)(F)F)cc1Cl)Nc1ccc(-c2ccc(OCCn3ccnc3)cc2)cc1Cl ; mutations: RT-K103 Y181C ; read by: PicoGreen / fluorescence ; read-out: IC50 ; result: <1 µM
CCN1c2ncc(CCOc3ccc(CCC(=O)O)c4ccccc34)cc2C(=O)N(C)c2ccc(Cl)nc21 ; mutations: RT-Y188L ; read by: nucleotide incorporation / radiometric ; read-out: fold resistance ; result: >10
Cc1ccc(-n2nnnc2SCC(=O)Nc2ccc(-c3nn[nH]n3)cc2Cl)c(Cl)c1 ; mutations: RT-K103 Y181C ; read by: PicoGreen / fluorescence ; read-out: IC50 ; result: <1 µM
CCN1c2ncc(CCOc3ccc(C(=O)Nc4ccc(C(=O)O)cc4)cc3C)cc2C(=O)Nc2c(C)ccnc21 ; strain: IIIB ; read by: nucleotide incorporation / radiometric ; read-out: IC50 ; result: <0.05 µM
CCN1c2ncc(CCOc3ccc4cc(CC(=O)O)ccc4c3)cc2C(=O)N(C)c2cccnc21 ; mutations: RT-Y188L ; read by: nucleotide incorporation / radiometric ; read-out: fold resistance ; result: >10
CC(C)(C#Cc1ccc(NC(=O)CSc2nnnn2-c2ccc(C3CC3)cc2Cl)c(Cl)c1F)OCCOc1ccc[n+]([O-])c1 ; strain: WT ; read by: PicoGreen / fluorescence ; read-out: IC50 ; result: <1 µM
CCN1c2ncc(CCOc3ccc(-c4cc(C)nc(C)c4)cc3C)cc2C(=O)N(C)c2cccnc21 ; strain: IIIB ; mutations: RT-K103N Y181C ; read by: nucleotide incorporation / radiometric ; read-out: fold resistance ; result: 1
Nc1ccc2c(c1)CN(c1nn3c(-c4cccs4)nnc3c3ccccc13)CC2 ; strain: 98US_MSC5016 ; read by: RT activity / fluorescence ; read-out: IC90 ; result: 8.51 µM
CCN1c2ncc(CCOc3ccc(-c4ccc(C(O)C(=O)O)cc4)cc3C)cc2C(=O)N(C)c2cccnc21 ; strain: IIIB ; mutations: RT-K103N Y181C ; read by: nucleotide incorporation / radiometric ; read-out: fold resistance ; result: 1
CCN1c2ncc(CCOc3ccc(/C=C(\C)C(=O)O)c4ccccc34)cc2C(=O)N(C)c2ccc(Cl)nc21 ; strain: WT ; read by: nucleotide incorporation / radiometric ; read-out: IC50 ; result: <0.1 µM
CCN1c2ncc(CCOc3ccc(Nc4ccc(C(=O)O)cc4)cc3C)cc2C(=O)N(C)c2cccnc21 ; strain: IIIB ; read by: nucleotide incorporation / radiometric ; read-out: IC50 ; result: <0.05 µM
Cc1nnc(SCC(=O)Nc2ccc(OCC(=O)N3CCC(C(=O)O)CC3)cc2Cl)n1-c1ccc(C2CC2)cc1Cl ; strain: WT ; read by: PicoGreen / fluorescence ; read-out: IC50 ; result: <1 µM
CCN1c2ncc(CCOc3ccc(C(=O)O)c4ccccc34)cc2C(=O)Nc2c(C)cc(F)nc21 ; mutations: RT-Y188L ; read by: nucleotide incorporation / radiometric ; read-out: fold resistance ; result: >10
CC(C)(C#Cc1ccc(NC(=O)CSc2nnnn2-c2ccc(C(C)(C)C)cc2Cl)c(Cl)c1)CO ; strain: WT ; read by: PicoGreen / fluorescence ; read-out: IC50 ; result: <1 µM
CCN1c2ncc(CCOc3ccc(C(=O)N=c4ccccn4O)cc3C)cc2C(=O)Nc2c(C)ccnc21 ; strain: IIIB ; mutations: RT-K103N Y181C ; read by: nucleotide incorporation / radiometric ; read-out: fold resistance ; result: >1
CC(C)(C)c1ccc(-n2nnnc2SCC(=O)Nc2ccc(NC(=O)Cc3ccccc3C(F)(F)F)cc2Cl)c(Cl)c1 ; strain: WT ; read by: PicoGreen / fluorescence ; read-out: IC50 ; result: <1 µM
Cc1nnc2c3ccccc3c(N3CCc4ccc(C(=O)O)cc4C3)nn12 ; strain: 98US_MSC5016 ; read by: RT activity / fluorescence ; read-out: IC90 ; result: 71.6 µM
CCC(N)(C#Cc1ccc(NC(=O)CSc2nnnn2-c2ccc(C3CC3)cc2Cl)c(Cl)c1)CC ; strain: WT ; read by: PicoGreen / fluorescence ; read-out: IC50 ; result: <1 µM
CCN1c2ncc(CCOc3ccc(S(=O)(=O)c4cccc(CC(=O)O)c4)cc3C)cc2C(=O)N(C)c2cccnc21 ; strain: IIIB ; mutations: RT-K103N Y181C ; read by: nucleotide incorporation / radiometric ; read-out: IC50 ; result: <0.05 µM